Laboratory results as given in the supplement of paper PMC13380429.
For part of these data: This list holds what a sample rich in highest values left over. For part of these data: What follows is the remainder of the data, with few or none of the hits. Only a part is listed here, and it is no random draw.

How the values were obtained:
[1] = tested on: Vero E6 infected with SARS-CoV-2; experiment: morphology score (similarity to uninfected cells); higher = more like uninfected cells; settings: 10 µM; 24 h
[2] = tested on: Vero E6 infected with SARS-CoV-2; experiment: inhibition of SARS-CoV-2 cytopathic effect; higher = more antiviral protection, active = above 15; settings: 48 h
[3] = tested on: Vero E6 infected with SARS-CoV-2; experiment: SARS-CoV-2 infection rate relative to infected DMSO; higher = more infection, active = 60 or less; settings: 10 µM; 24 h

Row | Compound | morphology score [1] | inhibition of SARS-CoV-2 cytopathic effect ([2]; 1 nM) | inhibition of SARS-CoV-2 cytopathic effect ([2]; 8.33 nM) | inhibition of SARS-CoV-2 cytopathic effect ([2]; 100 nM) | inhibition of SARS-CoV-2 cytopathic effect ([2]; 833.33 nM) | inhibition of SARS-CoV-2 cytopathic effect ([2]; 10000 nM) | SARS-CoV-2 infection rate [3]
1 | C[C@@H](N)C(=O)N[C@@H](CO)C(=O)N[C@H](C(=O)N[C@H](C(=O)N[C@H](C(=O)N[C@@H](CC(N)=O)C(=O)N[C@@H](Cc1ccc(O)cc1)C(=O)N[C@H](C(N)=O)[C@@H](C)O)[C@@H](C)O)[C@@H](C)O)[C@@H](C)O [adaptavir] | 0.151 | inactive: -1.5% | inactive: -0.88% | inactive: -1.41% | inactive: -0.86% | inactive: -1.27% | inactive: 93%
2 | CC[C@H](C)[C@H](NC(=O)[C@H](CCC(=O)O)NC(=O)[C@H](CCC(=O)O)NC(=O)[C@H](Cc1ccccc1)NC(=O)[C@H](CC(=O)O)NC(=O)CNC(=O)[C@H](CC(N)=O)NC(=O)CNC(=O)CNC(=O)CNC(=O)CNC(=O)[C@@H]1CCCN1C(=O)[C@H](CCCNC(=N)N)NC(=O)[C@@H]1CCCN1C(=O)[C@H](N)Cc1ccccc1)C(=O)N1CCC[C@H]1C(=O)N[C@@H](CCC(=O)O)C(=O)N[C@@H](CCC(=O)O)C(=O)N[C@@H](Cc1ccc(O)cc1)C(=O)N[C@@H](CC(C)C)C(=O)O [bivalirudin] | -0.00364 | inactive: 0.25% | inactive: -0.71% | inactive: -2.7% | inactive: 2.08% | inactive: 2.93% | inactive: 102%
3 | N=C(N)NCCC[C@H](N)C(=O)NCC(=O)N[C@@H](CC(=O)O)C(=O)N[C@@H](CO)C(=O)O | 0.0886 | inactive: 2.15% | inactive: 2.3% | inactive: 8.92% | active: 16.3% | inactive: 4.7% | inactive: 97.5%
